Laboratory results as given in patent US8198321B2, “Anti-microorganism terpenic composition” (priority 2006, dated 2012).
Like-named read-outs stand apart in the source and are kept apart here.

Conditions: rabbit

## zinc ascorbo-camphorate [Third preparation]
2.1 μg/milliliter intravaginal daily for 10 days
  infiltration observed and vascular congestion (histopathology): “minimal”
4200 μg/milliliter intravaginal daily for 10 days
  infiltration observed and vascular congestion (histopathology): “minimal”
